Results as given in patent publication US20050113292A1 (priority 2003, published 2005).

Assay: CD measurement of α-helicity
Assay type: physicochemical
Conditions: aqueous solution

CC[C@H](C)[C@H](NC(=O)[C@H](CC(C)C)NC(=O)[C@H](CO)NC(=O)[C@H](Cc1c[nH]cn1)NC(=O)[C@@H](NC(=O)[C@H](CC(C)C)NC(=O)[C@H](CO)NC(=O)[C@@H](NC(=O)[C@H](Cc1ccc(O)cc1)NC(=O)[C@H](CC(N)=O)NC(=O)[C@H](CC(N)=O)NC(=O)[C@@H](NC(=O)[C@H](CCC(=O)O)NC(=O)[C@H](CCCNC(=N)N)NC(=O)[C@H](CC(=O)O)NC(=O)[C@H](Cc1c[nH]c2ccccc12)NC(=O)[C@H](CCC(=O)O)NC(=O)[C@H](CCSC)NC(=O)[C@@H]1Cc2c([nH]c3ccccc23)C(C(=O)NCCCC[C@H](NC(=O)CCNC(=O)C2N[C@H](C(=O)N[C@@H](CCSC)C(=O)N[C@@H](CCC(=O)O)C(=O)N[C@@H](Cc3c[nH]c4ccccc34)C(=O)N[C@@H](CC(=O)O)C(=O)N[C@@H](CCCNC(=N)N)C(=O)N[C@@H](CCC(=O)O)C(=O)N[C@H](C(=O)N[C@@H](CC(N)=O)C(=O)N[C@@H](CC(N)=O)C(=O)N[C@@H](Cc3ccc(O)cc3)C(=O)N[C@H](C(=O)N[C@@H](CO)C(=O)N[C@@H](CC(C)C)C(=O)N[C@H](C(=O)N[C@@H](Cc3c[nH]cn3)C(=O)N[C@@H](CO)C(=O)N[C@@H](CC(C)C)C(=O)N[C@H](C(=O)N[C@@H](CCC(=O)O)C(=O)N[C@@H](CCC(=O)O)C(=O)N[C@@H](CO)C(=O)N[C@@H](CCC(N)=O)C(=O)N[C@@H](CC(N)=O)C(=O)N[C@@H](CCC(N)=O)C(=O)N[C@@H](CCC(N)=O)C(=O)N[C@@H](CCC(=O)O)C(=O)N[C@@H](CCCCN)C(=O)N[C@@H](CC(N)=O)C(=O)N[C@@H](CCC(=O)O)C(=O)N[C@@H](CCC(N)=O)C(=O)N[C@@H](CCC(=O)O)C(=O)N[C@@H](CC(C)C)C(=O)N[C@@H](CC(C)C)C(=O)O)[C@@H](C)CC)[C@@H](C)CC)[C@@H](C)O)[C@@H](C)CC)Cc3c2[nH]c2ccccc32)C(=O)N[C@@H](CO)C(=O)N[C@@H](CO)C(=O)N[C@@H](C)C(N)=O)N1)[C@@H](C)CC)[C@@H](C)O)[C@@H](C)CC)C(=O)N[C@@H](CCC(=O)O)C(=O)N[C@@H](CCC(=O)O)C(=O)N[C@@H](CO)C(=O)N[C@@H](CCC(N)=O)C(=O)N[C@@H](CC(N)=O)C(=O)N[C@@H](CCC(N)=O)C(=O)N[C@@H](CCC(N)=O)C(=O)N[C@@H](CCC(=O)O)C(=O)N[C@@H](CCCCN)C(=O)N[C@@H](CC(N)=O)C(=O)N[C@@H](CCC(=O)O)C(=O)N[C@@H](CCC(N)=O)C(=O)N[C@@H](CCC(=O)O)C(=O)N[C@@H](CC(C)C)C(=O)N[C@@H](CC(C)C)C(=O)O (stereo partly drawn) [Compound 2α-C34]
α-helicity (%): 52%

CC[C@H](C)[C@H](NC(=O)[C@H](CC(C)C)NC(=O)[C@H](CO)NC(=O)[C@H](Cc1c[nH]cn1)NC(=O)[C@@H](NC(=O)[C@H](CC(C)C)NC(=O)[C@H](CO)NC(=O)[C@@H](NC(=O)[C@H](Cc1ccc(O)cc1)NC(=O)[C@@H]1CSC(C(=O)NCCCC[C@H](NC(=O)CCNC(=O)C2N[C@H](C(=O)N[C@@H](Cc3ccc(O)cc3)C(=O)N[C@H](C(=O)N[C@@H](CO)C(=O)N[C@@H](CC(C)C)C(=O)N[C@H](C(=O)N[C@@H](Cc3c[nH]cn3)C(=O)N[C@@H](CO)C(=O)N[C@@H](CC(C)C)C(=O)N[C@H](C(=O)N[C@@H](CCC(=O)O)C(=O)N[C@@H](CCC(=O)O)C(=O)N[C@@H](CO)C(=O)N[C@@H](CCC(N)=O)C(=O)N[C@@H](CC(N)=O)C(=O)N[C@@H](CCC(N)=O)C(=O)N[C@@H](CCC(N)=O)C(=O)N[C@@H](CCC(=O)O)C(=O)N[C@@H](CCCCN)C(=O)N[C@@H](CC(N)=O)C(=O)N[C@@H](CCC(=O)O)C(=O)N[C@@H](CCC(N)=O)C(=O)N[C@@H](CCC(=O)O)C(=O)N[C@@H](CC(C)C)C(=O)N[C@@H](CC(C)C)C(=O)N[C@@H](CCC(=O)O)C(=O)N[C@@H](CC(C)C)C(=O)N[C@@H](CC(=O)O)C(=O)N[C@@H](CCCCN)C(=O)N[C@@H](Cc3c[nH]c4ccccc34)C(=O)N[C@@H](C)C(=O)N[C@@H](CO)C(=O)N[C@@H](CC(C)C)C(=O)N[C@@H](Cc3c[nH]c4ccccc34)C(=O)N[C@@H](CC(N)=O)C(=O)N[C@@H](Cc3c[nH]c4ccccc34)C(=O)N[C@@H](Cc3ccccc3)C(=O)O)[C@@H](C)CC)[C@@H](C)CC)[C@@H](C)O)CS2)C(=O)N[C@@H](CO)C(=O)N[C@@H](CO)C(=O)N[C@@H](C)C(N)=O)N1)[C@@H](C)O)[C@@H](C)CC)C(=O)N[C@@H](CCC(=O)O)C(=O)N[C@@H](CCC(=O)O)C(=O)N[C@@H](CO)C(=O)N[C@@H](CCC(N)=O)C(=O)N[C@@H](CC(N)=O)C(=O)N[C@@H](CCC(N)=O)C(=O)N[C@@H](CCC(N)=O)C(=O)N[C@@H](CCC(=O)O)C(=O)N[C@@H](CCCCN)C(=O)N[C@@H](CC(N)=O)C(=O)N[C@@H](CCC(=O)O)C(=O)N[C@@H](CCC(N)=O)C(=O)N[C@@H](CCC(=O)O)C(=O)N[C@@H](CC(C)C)C(=O)N[C@@H](CC(C)C)C(=O)N[C@@H](CCC(=O)O)C(=O)N[C@@H](CC(C)C)C(=O)N[C@@H](CC(=O)O)C(=O)N[C@@H](CCCCN)C(=O)N[C@@H](Cc1c[nH]c2ccccc12)C(=O)N[C@@H](C)C(=O)N[C@@H](CO)C(=O)N[C@@H](CC(C)C)C(=O)N[C@@H](Cc1c[nH]c2ccccc12)C(=O)N[C@@H](CC(N)=O)C(=O)N[C@@H](Cc1c[nH]c2ccccc12)C(=O)N[C@@H](Cc1ccccc1)C(=O)O (stereo partly drawn) [Compound 2α-DP178]
α-helicity (%): 66%
